Molecular target: Human immunodeficiency virus type 1 reverse transcriptase (Human immunodeficiency virus 1) (UniProt Q72547)
Test: Ratio of Kpol to Kd for wild type HIV1 LAI reverse transcriptase
Summary of the method: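 Pre-steady-state rapid quench: 400 nM active-site RT and 40 nM ³²P-P20/T57 DNA T/P were preincubated in 50 mM Tris-HCl pH 7.5, 50 mM KCl, then mixed with nucleotide in the same buffer containing 20 mM MgCl₂. Quenched with 0.3 M EDTA from 10 ms to 30 min, run on urea-PAGE. kobs came from single-exponential fits; kpol and Kd came from a hyperbolic fit versus nucleotide concentration.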

Compound: Cc1cn([C@H]2C[C@H](O)[C@@H](COP(=O)(O)OP(=O)(O)OP(=O)(O)O)O2)c(=O)[nH]c1=O [DEOXYTHYMIDINE_TRIPHOSPHATE]
- Ratio: 3.72
